The data set can be described thus: Fluorescence emission spectra without and with saturating ligand (wavelength shift, ΔIstd, ΔRmax). The following applies: for λmax,apo (nm) / λmax,sat (nm): emission maximum; for λmax,apo (nm): absence of ligand; for λmax,sat (nm): saturating ligand (ligand column); for ΔIstd: standard intensity change; for ΔIstd / ΔRmax: unbound vs ligand-saturated; for ΔRmax: standard ratiometric change. The gist of the method:
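Emission spectra of bPBP–fluorophore conjugates (50–1000 nM protein, 25 °C, stirred) recorded without and with saturating ligand, using fluorophore-specific excitation. Wavelength shift, ΔIstd (intensity change at the mid-point wavelength) and ΔRmax (maximal ratiometric change over enumerated band pairs, 2 nm steps, 10 nm width) derived.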

B1: dipeptide BP S111C JPW4042 (conjugate, UniProt P23847 29-535, looked up, variant S111C)
Dipeptide-binding protein: KTLVYCSEGSPEGFNPQLFTSGTTYDASSVPLYNRLVEFKIGTTEVIPGLAEKWEVSEDGKTYTFHLRKGVKWHDNKEFKPTRELNADDVVFSFDRQKNAQNPYHKVSGGCYEYFEGMGLPELISEVKKVDDNTVQFVLTRPEAPFLADLAMDFASILSKEYADAMMKAGTPEKLDLNPIGTGPFQLQQYQKDSRIRYKAFDGYWGTKPQIDTLVFSITPDASVRYAKLQKNECQVMPYPNPADIARMKQDKSINLMEMPGLNVGYLSYNVQKKPLDDVKVRQALTYAVNKDAIIKAVYQGAGVSAKNLIPPTMWGYNDDVQDYTYDPEKAKALLKEAGLEKGFSIDLWAMPVQRPYNPNARRMAEMIQADWAKVGVQAKIVTYEWGEYLKRAKDGEHQTVMMGWTGDNGDPDNFFATLFSCAASEQGSNYSKWCYKPFEDLIQPARATDDHNKRVELYKQAQVVMHDQAPALIIAHSTVFEPVRKEVKGYVVDPLGKHHFENVSIE
modifications: JPW4042 dye label
As for B1, the “λmax,apo (nm)” value was 644, the “λmax,sat (nm)” value came to 644, the ΔIstd turned out to be 0.18 and the ΔRmax came to 1.49.

B2: dipeptide BP T44C Acrylodan (conjugate, UniProt P23847 29-535, looked up, variant T44C)
Dipeptide-binding protein: KTLVYCSEGSPEGFNPQLFTSGTTYDASSVPLYNRLVEFKIGTCEVIPGLAEKWEVSEDGKTYTFHLRKGVKWHDNKEFKPTRELNADDVVFSFDRQKNAQNPYHKVSGGSYEYFEGMGLPELISEVKKVDDNTVQFVLTRPEAPFLADLAMDFASILSKEYADAMMKAGTPEKLDLNPIGTGPFQLQQYQKDSRIRYKAFDGYWGTKPQIDTLVFSITPDASVRYAKLQKNECQVMPYPNPADIARMKQDKSINLMEMPGLNVGYLSYNVQKKPLDDVKVRQALTYAVNKDAIIKAVYQGAGVSAKNLIPPTMWGYNDDVQDYTYDPEKAKALLKEAGLEKGFSIDLWAMPVQRPYNPNARRMAEMIQADWAKVGVQAKIVTYEWGEYLKRAKDGEHQTVMMGWTGDNGDPDNFFATLFSCAASEQGSNYSKWCYKPFEDLIQPARATDDHNKRVELYKQAQVVMHDQAPALIIAHSTVFEPVRKEVKGYVVDPLGKHHFENVSIE
modifications: acrylodan conjugate
Take B2: the “λmax,apo (nm)” value stood at 499, the “λmax,sat (nm)” value worked out at 501, the ΔIstd amounted to 0.01 and the ΔRmax amounted to 1.52.

B3: dipeptide BP S111C JPW4045 (conjugate, UniProt P23847 29-535, looked up, variant S111C)
Dipeptide-binding protein: KTLVYCSEGSPEGFNPQLFTSGTTYDASSVPLYNRLVEFKIGTTEVIPGLAEKWEVSEDGKTYTFHLRKGVKWHDNKEFKPTRELNADDVVFSFDRQKNAQNPYHKVSGGCYEYFEGMGLPELISEVKKVDDNTVQFVLTRPEAPFLADLAMDFASILSKEYADAMMKAGTPEKLDLNPIGTGPFQLQQYQKDSRIRYKAFDGYWGTKPQIDTLVFSITPDASVRYAKLQKNECQVMPYPNPADIARMKQDKSINLMEMPGLNVGYLSYNVQKKPLDDVKVRQALTYAVNKDAIIKAVYQGAGVSAKNLIPPTMWGYNDDVQDYTYDPEKAKALLKEAGLEKGFSIDLWAMPVQRPYNPNARRMAEMIQADWAKVGVQAKIVTYEWGEYLKRAKDGEHQTVMMGWTGDNGDPDNFFATLFSCAASEQGSNYSKWCYKPFEDLIQPARATDDHNKRVELYKQAQVVMHDQAPALIIAHSTVFEPVRKEVKGYVVDPLGKHHFENVSIE
modifications: JPW4045 dye conjugate
B3: the “λmax,apo (nm)” value was found to be 634, the “λmax,sat (nm)” value worked out at 642, the ΔIstd turned out to be 0.01 and the ΔRmax came to 1.07.

B4: dipeptide BP T44C JPW4042 (conjugate, UniProt P23847 29-535, looked up, variant T44C)
Dipeptide-binding protein: KTLVYCSEGSPEGFNPQLFTSGTTYDASSVPLYNRLVEFKIGTCEVIPGLAEKWEVSEDGKTYTFHLRKGVKWHDNKEFKPTRELNADDVVFSFDRQKNAQNPYHKVSGGSYEYFEGMGLPELISEVKKVDDNTVQFVLTRPEAPFLADLAMDFASILSKEYADAMMKAGTPEKLDLNPIGTGPFQLQQYQKDSRIRYKAFDGYWGTKPQIDTLVFSITPDASVRYAKLQKNECQVMPYPNPADIARMKQDKSINLMEMPGLNVGYLSYNVQKKPLDDVKVRQALTYAVNKDAIIKAVYQGAGVSAKNLIPPTMWGYNDDVQDYTYDPEKAKALLKEAGLEKGFSIDLWAMPVQRPYNPNARRMAEMIQADWAKVGVQAKIVTYEWGEYLKRAKDGEHQTVMMGWTGDNGDPDNFFATLFSCAASEQGSNYSKWCYKPFEDLIQPARATDDHNKRVELYKQAQVVMHDQAPALIIAHSTVFEPVRKEVKGYVVDPLGKHHFENVSIE
modifications: JPW4042 label
As for B4, the “λmax,apo (nm)” value is listed as 634, the “λmax,sat (nm)” value is 635, the ΔIstd came to 0.06 and the ΔRmax worked out at 0.30.

B5: dipeptide BP T44C JPW4039 (conjugate, UniProt P23847 29-535, looked up, variant T44C)
Dipeptide-binding protein: KTLVYCSEGSPEGFNPQLFTSGTTYDASSVPLYNRLVEFKIGTCEVIPGLAEKWEVSEDGKTYTFHLRKGVKWHDNKEFKPTRELNADDVVFSFDRQKNAQNPYHKVSGGSYEYFEGMGLPELISEVKKVDDNTVQFVLTRPEAPFLADLAMDFASILSKEYADAMMKAGTPEKLDLNPIGTGPFQLQQYQKDSRIRYKAFDGYWGTKPQIDTLVFSITPDASVRYAKLQKNECQVMPYPNPADIARMKQDKSINLMEMPGLNVGYLSYNVQKKPLDDVKVRQALTYAVNKDAIIKAVYQGAGVSAKNLIPPTMWGYNDDVQDYTYDPEKAKALLKEAGLEKGFSIDLWAMPVQRPYNPNARRMAEMIQADWAKVGVQAKIVTYEWGEYLKRAKDGEHQTVMMGWTGDNGDPDNFFATLFSCAASEQGSNYSKWCYKPFEDLIQPARATDDHNKRVELYKQAQVVMHDQAPALIIAHSTVFEPVRKEVKGYVVDPLGKHHFENVSIE
modifications: JPW4039 dye conjugate
With B5, the “λmax,apo (nm)” value is listed as 594, the “λmax,sat (nm)” value is given as 596, the ΔIstd stood at 0.13 and the ΔRmax was 0.33.

B6: dipeptide BP T44C JPW4045 (conjugate, UniProt P23847 29-535, looked up, variant T44C)
Dipeptide-binding protein: KTLVYCSEGSPEGFNPQLFTSGTTYDASSVPLYNRLVEFKIGTCEVIPGLAEKWEVSEDGKTYTFHLRKGVKWHDNKEFKPTRELNADDVVFSFDRQKNAQNPYHKVSGGSYEYFEGMGLPELISEVKKVDDNTVQFVLTRPEAPFLADLAMDFASILSKEYADAMMKAGTPEKLDLNPIGTGPFQLQQYQKDSRIRYKAFDGYWGTKPQIDTLVFSITPDASVRYAKLQKNECQVMPYPNPADIARMKQDKSINLMEMPGLNVGYLSYNVQKKPLDDVKVRQALTYAVNKDAIIKAVYQGAGVSAKNLIPPTMWGYNDDVQDYTYDPEKAKALLKEAGLEKGFSIDLWAMPVQRPYNPNARRMAEMIQADWAKVGVQAKIVTYEWGEYLKRAKDGEHQTVMMGWTGDNGDPDNFFATLFSCAASEQGSNYSKWCYKPFEDLIQPARATDDHNKRVELYKQAQVVMHDQAPALIIAHSTVFEPVRKEVKGYVVDPLGKHHFENVSIE
modifications: JPW4045 dye conjugate
On to B6, for which the “λmax,apo (nm)” value is reported as 640, the “λmax,sat (nm)” value is 636, the ΔIstd amounted to 0.13 and the ΔRmax was found to be 0.82.

B7: dipeptide BP S111C NBD (conjugate, UniProt P23847 29-535, looked up, variant S111C)
Dipeptide-binding protein: KTLVYCSEGSPEGFNPQLFTSGTTYDASSVPLYNRLVEFKIGTTEVIPGLAEKWEVSEDGKTYTFHLRKGVKWHDNKEFKPTRELNADDVVFSFDRQKNAQNPYHKVSGGCYEYFEGMGLPELISEVKKVDDNTVQFVLTRPEAPFLADLAMDFASILSKEYADAMMKAGTPEKLDLNPIGTGPFQLQQYQKDSRIRYKAFDGYWGTKPQIDTLVFSITPDASVRYAKLQKNECQVMPYPNPADIARMKQDKSINLMEMPGLNVGYLSYNVQKKPLDDVKVRQALTYAVNKDAIIKAVYQGAGVSAKNLIPPTMWGYNDDVQDYTYDPEKAKALLKEAGLEKGFSIDLWAMPVQRPYNPNARRMAEMIQADWAKVGVQAKIVTYEWGEYLKRAKDGEHQTVMMGWTGDNGDPDNFFATLFSCAASEQGSNYSKWCYKPFEDLIQPARATDDHNKRVELYKQAQVVMHDQAPALIIAHSTVFEPVRKEVKGYVVDPLGKHHFENVSIE
modifications: NBD dye conjugate
For the molecule B7, the “λmax,apo (nm)” value was 538, the “λmax,sat (nm)” value is recorded as 542, the ΔIstd came out at 0.01 and the ΔRmax turned out to be 0.18.

B8: dipeptide BP S111C Fluorescein (conjugate, UniProt P23847 29-535, looked up, variant S111C)
Dipeptide-binding protein: KTLVYCSEGSPEGFNPQLFTSGTTYDASSVPLYNRLVEFKIGTTEVIPGLAEKWEVSEDGKTYTFHLRKGVKWHDNKEFKPTRELNADDVVFSFDRQKNAQNPYHKVSGGCYEYFEGMGLPELISEVKKVDDNTVQFVLTRPEAPFLADLAMDFASILSKEYADAMMKAGTPEKLDLNPIGTGPFQLQQYQKDSRIRYKAFDGYWGTKPQIDTLVFSITPDASVRYAKLQKNECQVMPYPNPADIARMKQDKSINLMEMPGLNVGYLSYNVQKKPLDDVKVRQALTYAVNKDAIIKAVYQGAGVSAKNLIPPTMWGYNDDVQDYTYDPEKAKALLKEAGLEKGFSIDLWAMPVQRPYNPNARRMAEMIQADWAKVGVQAKIVTYEWGEYLKRAKDGEHQTVMMGWTGDNGDPDNFFATLFSCAASEQGSNYSKWCYKPFEDLIQPARATDDHNKRVELYKQAQVVMHDQAPALIIAHSTVFEPVRKEVKGYVVDPLGKHHFENVSIE
modifications: fluorescein label
For the molecule B8, the “λmax,apo (nm)” value was found to be 521, the “λmax,sat (nm)” value was found to be 521, the ΔIstd came to 0.07 and the ΔRmax worked out at 0.18.

B9: dipeptide BP S111C Acrylodan (conjugate, UniProt P23847 29-535, looked up, variant S111C)
Dipeptide-binding protein: KTLVYCSEGSPEGFNPQLFTSGTTYDASSVPLYNRLVEFKIGTTEVIPGLAEKWEVSEDGKTYTFHLRKGVKWHDNKEFKPTRELNADDVVFSFDRQKNAQNPYHKVSGGCYEYFEGMGLPELISEVKKVDDNTVQFVLTRPEAPFLADLAMDFASILSKEYADAMMKAGTPEKLDLNPIGTGPFQLQQYQKDSRIRYKAFDGYWGTKPQIDTLVFSITPDASVRYAKLQKNECQVMPYPNPADIARMKQDKSINLMEMPGLNVGYLSYNVQKKPLDDVKVRQALTYAVNKDAIIKAVYQGAGVSAKNLIPPTMWGYNDDVQDYTYDPEKAKALLKEAGLEKGFSIDLWAMPVQRPYNPNARRMAEMIQADWAKVGVQAKIVTYEWGEYLKRAKDGEHQTVMMGWTGDNGDPDNFFATLFSCAASEQGSNYSKWCYKPFEDLIQPARATDDHNKRVELYKQAQVVMHDQAPALIIAHSTVFEPVRKEVKGYVVDPLGKHHFENVSIE
modifications: acrylodan label
As for B9, the “λmax,apo (nm)” value turned out to be 499, the “λmax,sat (nm)” value came to 501, the ΔIstd turned out to be 0.11 and the ΔRmax was determined as 1.61.
